Source: publication PMC5501646
For some assays here: The exact form of at least one protein or probe is not confirmed. For some assays here: At least one verdict rests on a figure or table, not on a statement of the authors.

Protein sequences, listed by entry. Tags and fused reporters are not part of them. Lines headed by an entry give the natural chain unless they say otherwise; changes in a name come on top.
UniProt Q9HUM0: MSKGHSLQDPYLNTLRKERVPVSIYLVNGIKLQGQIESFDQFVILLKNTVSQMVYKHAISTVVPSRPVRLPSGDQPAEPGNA

Assays:
[1] = molecular target: HfqPae (wild type) (Pseudomonas aeruginosa PAO1) (UniProt Q9HUM0); assay: MST; details: 30 nM labelled Hfq, 1 mM Mg2+, 25 C, MST: 10 mM Tris pH 8.0, 40 mM NaCl, 10 mM KCl, 1 mM MgCl2, 0.05% Tween, recombinant protein, residues 1-82, probe letters rebuilt from the primers and the genome
[2] = molecular target: HfqPae (wild type) (Pseudomonas aeruginosa PAO1) (UniProt Q9HUM0); assay: EMSA; details: 10 nM RNA, 1-8-fold Hfq, tRNA competitor; EMSA: 10 mM Tris-HCl pH 8.0, 10 mM MgCl2, 60 mM NaCl, 10 mM NaH2PO4, 10 mM DTT, 25 ng tRNA in 10 ul, 37 C 30 min; recombinant protein; residues 1-82; label: 5'-32P (EMSA), none (MST); probe letters rebuilt from the primers and the genome

## GGCACAACAACAAUAACAAGCAACGACGAAGACAAUAAAAACAACACGUAACGACUCCAGCACAACAAAAACAAAAUCGCGGAGGCGCAGCUAACUGAUUCUUUUGGAGAGGAGUUGCUGUCGGGACCCGUCCCGCAGCCAGUCGGAAGAAGAAUAAAACUGCCUUGAGGCAGCGCACAGACUGGUUGGAUCGCUCGACGAUCAUGGCAGCAUCAGCGACCAAAGCAAUCCGUUUGCUAUUGAACUCCCAGCCUGGGAGAUAUCCCUGAAGCGACUGGCUCAAGGGACGGGUCGACAAACAAAAACAACAAGCCCGAAAUCAUAAUAAAAACAAAGCACGCACCUACUUGGGGGGGAGCUUCGGCUCCCCCAGUAGCUUCACCCCCUCCCUCCGUUUUCCCCGUUUUUCCUUCGCCUUACACCAUUUCGGAUCCGCAU [CrcZ RNA]
[1]
  Kd: 7.4 nM

## GGGAGCCGGCCUUGCGCCGGCAUAUGCCUUGCAUUUUGCUGAAAACAGAGCGCCAGCAGAGCGCACCCCCAGCCUUGCCGUGUCGAGUGCCGAACCAUGAUGAGGACCCAUCCCGUCGCCGAUCGUGGCGAUCUCCAUGCCGACCACCUGGACCUGGCCGCCG [antR(-95-+67) mRNA fragment]
[2]
  binding result: binds
